Measured data: PubChem BioAssay AID624099 (ICCB-Longwood, 2012)
The whole screen tested about 21,000 reagents; this is an unselected part. In the full data, 497 (2.4%) were called active. 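Higher z means weaker E2 silencing; only reporter increases were scored, and knock-downs that hurt cell survival may mask genuine repressor factors.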

- Screen: 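Human genes that papillomavirus E2 requires to repress the HPV18 LCR promoter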 (primary screen)
- System: human C33A cervical carcinoma cells (HPV-negative) stably expressing BPV1 E2 and an HPV18 LCR luciferase reporter
- Reagent: siRNA pool against human genes, 40 nM
- Time to read-out: 72 h
- Measurement: 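HPV18 LCR reporter light per well, converted to plate-wise z-scores that exclude control wells, and averaged over triplicate plates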
- Scale: mean z-score and z-score: higher = stronger reporter signal, weaker E2 silencing
- Rule for the call: 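Mean z ≥ 2 together with z ≥ 2 in two or more of the three replicates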

no.	gene knocked down	mean z-score	z-score, replicate A	z-score, replicate B	z-score, replicate C	Call
1	SLC36A2 (GeneID 153201)	-0.7	-0.55	-0.63	-0.93	inactive
2	ATOH1 (GeneID 474)	0.36	-0.04	0.47	0.64	inactive
3	GLP1R (GeneID 2740)	-0.64	-0.45	-0.86	-0.61	inactive
4	RBM27 (GeneID 54439)	0.77	0.86	0.89	0.57	inactive
5	GRIK3 (GeneID 2899)	1.32	1.33	1.3	1.32	inactive
6	KYAT3 (GeneID 56267)	-0.37	-0.58	0	-0.52	inactive
7	ZNF570 (GeneID 148268)	1.01	1.14	1.15	0.73	inactive
8	LOC132870 (retired record) (GeneID 132870)	1.01	1.12	0.97	0.94	inactive
9	CBARP (GeneID 255057)	-0.91	-1.18	-0.81	-0.76	inactive
10	SPANXA1 (GeneID 30014)	-1.08	-1.17	-1.19	-0.88	inactive
11	SCO2 (GeneID 9997)	0.62	0.8	0.53	0.54	inactive
12	FTH1P14 (GeneID 139431)	1.64	1.52	1.61	1.78	inactive
13	LOC389642 (retired record) (GeneID 389642)	0.67	0.62	0.99	0.39	inactive
14	MFSD1 (GeneID 64747)	-0.28	-0.51	0.19	-0.52	inactive
15	LMBR1 (GeneID 64327)	-0.11	-0.34	0	0.02	inactive
16	SAPCD2 (GeneID 89958)	-1.09	-1.3	-1.1	-0.87	inactive
17	KIF15 (GeneID 56992)	-0.14	0.05	-0.29	-0.19	inactive
18	PHGDH (GeneID 26227)	-0.72	-0.88	-0.69	-0.6	inactive
19	PACSIN1 (GeneID 29993)	-0.57	-0.49	-0.65	-0.58	inactive
20	LOC81787 (retired record) (GeneID 81787)	-0.46	-0.61	-0.53	-0.23	inactive
21	LINC00308 (GeneID 54143)	1.76	1.91	1.72	1.65	inactive
22	TLR7 (GeneID 51284)	-0.37	-0.34	-0.1	-0.67	inactive
23	GPD1 (GeneID 2819)	-0.11	0	0.03	-0.36	inactive
24	TMIGD2 (GeneID 126259)	0.16	-0.23	0.33	0.39	inactive
25	NKX2-2 (GeneID 4821)	0	0.01	-0.17	0.16	inactive
26	NUDT11 (GeneID 55190)	-2.28	-1.17	-1.98	-3.69	inactive
27	PKD1L3 (GeneID 342372)	1.07	0.82	1.29	1.09	inactive
28	CRACR2B (GeneID 283229)	0.19	0.25	0.31	0	inactive
29	SPRR3 (GeneID 6707)	-0.16	-0.08	-0.25	-0.15	inactive
30	PAGE1 (GeneID 8712)	-1.21	-1.31	-1.2	-1.11	inactive
31	SNPH (GeneID 9751)	-0.38	-0.41	-0.31	-0.43	inactive

A run of entries taken from the entries so far, as a working copy:
no.	gene knocked down	mean z-score	z-score, replicate A	z-score, replicate B	z-score, replicate C	Call
27	PKD1L3 (GeneID 342372)	1.07	0.82	1.29	1.09	inactive
28	CRACR2B (GeneID 283229)	0.19	0.25	0.31	0	inactive
29	SPRR3 (GeneID 6707)	-0.16	-0.08	-0.25	-0.15	inactive

The listing continues.
no.	gene knocked down	mean z-score	z-score, replicate A	z-score, replicate B	z-score, replicate C	Call
32	LIN7C (GeneID 55327)	1.22	1.27	0.99	1.41	inactive
33	LOC391340 (retired record) (GeneID 391340)	0.71	0.56	1.01	0.56	inactive
34	NSUN7 (GeneID 79730)	0.21	0.07	0.27	0.28	inactive
35	NAGPA (GeneID 51172)	0.75	0.87	0.53	0.84	inactive
36	MYLK4 (GeneID 340156)	0.98	0.81	1.18	0.96	inactive
37	LPGAT1 (GeneID 9926)	-0.09	0.1	-0.22	-0.17	inactive
38	BEND7 (GeneID 222389)	2.52	2.1	2.91	2.55	active
39	ZP3 (GeneID 7784)	-1.54	-1.58	-1.63	-1.42	inactive
40	ZNF211 (GeneID 10520)	0.48	0.75	0.63	0.07	inactive
41	NFKB1 (GeneID 4790)	0.05	0.31	0	-0.14	inactive
42	OR10K1 (GeneID 391109)	-0.37	-0.34	-0.31	-0.44	inactive
43	TUBB1 (GeneID 81027)	-0.57	-0.66	-0.61	-0.45	inactive
44	INPP5B (GeneID 3633)	1.1	1.43	0.92	0.97	inactive
45	ACSBG1 (GeneID 23205)	1.15	0.88	2.11	0.46	inactive
46	EIF4E2 (GeneID 9470)	0.17	0.32	0.15	0.04	inactive
47	FLT1 (GeneID 2321)	-1.12	-1.26	-1.12	-0.98	inactive
48	STS (GeneID 412)	1.1	1.03	1.3	0.96	inactive
49	UNC93B3 (GeneID 285296)	-0.16	-0.35	-0.14	0	inactive
50	ST3GAL5 (GeneID 8869)	-0.5	-0.77	-0.36	-0.37	inactive
51	MYO5C (GeneID 55930)	0.04	0.09	0.17	-0.13	inactive
52	TFEB (GeneID 7942)	-0.64	-0.76	-0.41	-0.75	inactive
53	ACOXL-AS1 (GeneID 400997)	2.14	1.65	1.78	2.98	inactive
54	IFNWP2 (GeneID 646581)	0.84	0.68	0.83	1.02	inactive
55	TEX19 (GeneID 400629)	-0.37	-0.38	-0.48	-0.26	inactive
56	SACM1L (GeneID 22908)	-0.92	-1	-0.83	-0.95	inactive
57	KDM4E (GeneID 390245)	-0.53	-0.6	-0.66	-0.33	inactive
